A mixed list of measured activities; the numbers were collected in NIAID ChemDB.

Shared fields: cytotoxicity tests; cells: MT-2; measure: CC50

An empty or dashed field is not shown. Neighbouring rows are from separate reports. CCn is the concentration with n% toxicity to the cells.

compound	read by	result
COC(=O)C(CCCCNC(=O)c1ccc(O)c(O)c1)NC(=O)c1ccc(O)c(O)c1	neutral red	>70 µM
Cc1cn([C@H]2CC[C@@H](COC(=O)c3ccccc3)O2)c(=O)[nH]c1=O	-	>625 µM
Cc1c(CC(=O)N[C@@H](Cc2ccccc2)C(=O)N(C)c2ccc3c(c2)OCO3)c(C2CC2)nn1CCO	ATP	>20 µM
COc1ccc(N(C)C(=O)[C@H](Cc2ccccc2)NC(=O)NS(=O)(=O)N[C@@H](Cc2ccccc2)C(=O)N2CCCC2)cc1	XTT	33.3 µM
CCOC(=O)Cc1c(C)nn(CC(=O)N[C@@H](Cc2ccccc2)C(=O)N(C)c2ccc3c(c2)OCO3)c1CC	ATP	>20 µM
O=C(NCCC(NC(=O)c1ccc(O)c(O)c1)C(=O)O)c1ccc(O)c(O)c1	neutral red	>75 µM
CCc1c(CC(=O)N[C@@H](Cc2ccccc2)C(=O)N(C)c2ccc3c(c2)OCO3)c(C)nn1CCO	ATP	>20 µM
Cc1ncc(N(C)C(=O)[C@H](Cc2cc(F)cc(F)c2)NC(=O)NS(=O)(=O)N[C@@H](Cc2cc(F)cc(F)c2)C(=O)N(C)c2cnc(C)nc2)cn1	XTT	25 µM
C=Cc1ccnc(CC(=O)N[C@@H](Cc2ccccc2)C(=O)N(C)c2ccc3c(c2)OCO3)c1	ATP	>20 µM
Cc1cn([C@H]2CC[C@@H](CO)O2)c(=O)[nH]c1=S	-	90 µM
CN(C(=O)[C@H](Cc1cc(F)cc(F)c1)NC(=O)c1cccc(C(=O)N[C@@H](Cc2cc(F)cc(F)c2)C(=O)N(C)c2ccc3scnc3c2)c1)c1ccc2scnc2c1	XTT	100 µM
O=C(NCCC(NC(=O)c1cc(O)c(O)c(O)c1)C(=O)O)c1cc(O)c(O)c(O)c1	neutral red	>56 µM
CN(C(=O)[C@H](Cc1cc(F)cc(F)c1)NC(=O)NS(=O)(=O)N[C@@H](Cc1cc(F)cc(F)c1)C(=O)N(C)c1ccc2sc(=O)[nH]c2c1)c1ccc2sc(=O)[nH]c2c1	XTT	100 µM
O=C(/C=C/c1cc(O)c(O)c(O)c1)NCCCC(NC(=O)/C=C/c1cc(O)c(O)c(O)c1)C(=O)O	neutral red	>37 µM
COc1ccc(N(C)C(=O)[C@H](Cc2ccccc2)NC(=O)C2CCCCC2C(=O)N[C@@H](Cc2ccccc2)C(=O)N(C)c2ccc(OC)cc2)cc1	XTT	33.3 µM
COC(=O)C(CCNC(=O)/C=C/c1ccc(O)c(O)c1)NC(=O)/C=C/c1ccc(O)c(O)c1	neutral red	>66 µM
COc1ccc(N(C)C(=O)[C@H](Cc2ccccc2)NC(=O)c2cc(C(=O)N[C@@H](Cc3ccccc3)C(=O)N(C)c3ccc(OC)cc3)cc(C(C)(C)C)c2)cc1	XTT	33.3 µM
O=C(/C=C/c1cc(O)c(O)c(O)c1)NCCC(NC(=O)/C=C/c1cc(O)c(O)c(O)c1)C(=O)O	neutral red	>29 µM

For reference, 3 entries again:

compound,read by,result
Cc1c(CC(=O)N[C@@H](Cc2ccccc2)C(=O)N(C)c2ccc3c(c2)OCO3)c(C2CC2)nn1CCO,ATP,>20 µM
O=C(/C=C/c1cc(O)c(O)c(O)c1)NCCCC(NC(=O)/C=C/c1cc(O)c(O)c(O)c1)C(=O)O,neutral red,>37 µM
Cc1cn([C@H]2CC[C@@H](CO)O2)c(=O)[nH]c1=S,-,90 µM